Laboratory results: PubChem BioAssay AID504761 (Drosophila RNAi Screening Center, 2011)

Screen: 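Genome-wide fly cell screen for genes dengue virus requires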 (primary screen)
System: D.Mel-2 cells from Drosophila
Reagent: long dsRNA against Drosophila genes
Conditions: infection with dengue virus type 2; dose and infection time not stated
Measurement: 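Per well on two replicate plates, imaging gave the percent of cells positive for viral envelope protein, ranked by infection, and a nuclear count of cells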
Reading the numbers: infection score: higher = more virus-infected cells; cell count: higher = more cells in the well
Call rule: 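Very low infection ranking in both replicate wells (chance probability at most 0.065), then a retest showing infection dropped 1.5-fold or more at p below 0.05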
Calls: active = confirmed: knock-down lowers infection; inactive = not picked or not confirmed
The deposit covers about 22,000 reagents; shown is a random part of those with a known target gene and a result. In the full data, 116 (0.52%) got an active call. 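Calls depend on retest data that are not deposited; infection was ranked per plate without normalising between plates; the unit of the infection score is not given.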 The raw values are shown without normalisation. Further read-outs or replicates are left out here. The record does not give: the amount of reagent, the time to read-out.

For PIG-H [DRSC14856], how do the results read?
infection score, replicate 1: 7.72; cell count, replicate 1: 6429; call: inactive

With CG42329 [DRSC00373], what does the deposit list?
infection score, replicate 1: 3.2; cell count, replicate 1: 6777; call: inactive

How did the screen score CG42329 [DRSC00682]?
infection score, replicate 1: 4.95; cell count, replicate 1: 6652; call: inactive

What did the screen give for eIF4E5 [DRSC10975]?
infection score, replicate 1: 10.1; cell count, replicate 1: 6533; call: inactive

With eIF4E5 [DRSC25877], what was measured?
infection score, replicate 1: 4.38; cell count, replicate 1: 6077; call: inactive

2 of these entries, set out differently:
{"gene": "CG42329", "DRSC id": "DRSC00682", "infection score, replicate 1": 4.95, "cell count, replicate 1": 6652, "call": "inactive"}
{"gene": "eIF4E5", "DRSC id": "DRSC10975", "infection score, replicate 1": 10.1, "cell count, replicate 1": 6533, "call": "inactive"}

Additional entries follow:
What is on record for CG10185 [DRSC14205]?
infection score, replicate 1: 2.98; cell count, replicate 1: 6345; call: inactive

For CG6425 [DRSC16038], how do the results read?
infection score, replicate 1: 2.39; cell count, replicate 1: 6232; call: inactive

What did the screen give for CG5880 [DRSC15906]?
infection score, replicate 1: 10.1; cell count, replicate 1: 6422; call: inactive

What is on record for Fic [DRSC03247]?
infection score, replicate 1: 1.41; cell count, replicate 1: 6042; call: inactive

With Nasp [DRSC27430], what does the deposit list?
infection score, replicate 1: 21.9; cell count, replicate 1: 6656; call: inactive

With Vps8 [DRSC09705], what does the deposit list?
infection score, replicate 1: 1.73; cell count, replicate 1: 5886; call: inactive

Which result is listed for Sec24CD [DRSC00300]?
infection score, replicate 1: 5.91; cell count, replicate 1: 5823; call: inactive

Which result is listed for CG31778 [DRSC00283]?
infection score, replicate 1: 0.9; cell count, replicate 1: 6551; call: inactive

How did the screen score Nmda1 [DRSC07479]?
infection score, replicate 1: 6.06; cell count, replicate 1: 6205; call: inactive

How did the screen score Nmda1 [DRSC26357]?
infection score, replicate 1: 6.48; cell count, replicate 1: 6034; call: inactive
